Laboratory results reported in patent US8486381B2, “Methods of modulating intestinal fluid balance” (Amgen Inc., priority 2005, dated 2013).

Test system: cyclic AMP
Assay: Secretagogue-stimulated cyclic AMP accumulation in colonic crypt cell suspensions
Assay type: cell-based
Conditions: 0.1 mM Ca^2+; to control levels

SMILES: COc1cccc([C@@H](C)NCCCc2ccccc2Cl)c1.Cl [Compound A, N-(3-[2-chlorophenyl]-propyl)-R-α-methyl-3-methoxybenzylamine HCl]
- Effect on cholera toxin induced cyclic AMP production: attenuates cyclic AMP in a doze-dependent manner
